The values below come from article PMC8445433, “Broadly directed SARS-CoV-2-specific CD4+ T cell response includes frequently detected peptide specificities within the membrane and nucleoprotein in patients with acute and resolved COVID-19” (PLoS Pathogens, 2021).

The chains behind the UniProt entries cited, without tags or fusion partners. Residues count along the entry.
UniProt P79483, 30-266 R40L/Y55F/D57E/Y59H/F66Y/L67A/T80R/V86D/S89Y/R103Q/A212P/R218S limits assumed: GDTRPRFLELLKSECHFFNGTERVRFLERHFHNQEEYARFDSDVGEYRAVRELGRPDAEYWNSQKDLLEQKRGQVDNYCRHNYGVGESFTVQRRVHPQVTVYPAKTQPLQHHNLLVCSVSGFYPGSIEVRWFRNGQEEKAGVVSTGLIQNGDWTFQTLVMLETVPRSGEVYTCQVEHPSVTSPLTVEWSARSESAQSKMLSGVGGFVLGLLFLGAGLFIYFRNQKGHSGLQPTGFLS

What all share (assay): biochemical
The target in one test is DRB1*01:01 (Homo sapiens, UniProt P01903+P01911, A100R/D57E/F55L/F60I/F76Y/I96L/L162R/M171V/P40L/Q125E/R42F/V115G/Y59C). The test is classed as binding.
The next test deals with DRB1*04:01 (Homo sapiens, UniProt P01903+P01911, A100K/A169T/F76Y/I96L/K127E/L162R/M171V/N62H/P40V/Q125Y/R42H/S133A/S149N/S66Y/V115G/V209L/W38E). The test is classed as binding.
Another test has as its target DRB1*07:01 (Homo sapiens, UniProt P01903+P01911, A100R/A102G/A103Q/D57E/D86V/E43K/F76Y/K127E/L162R/M171V/P40G/Q125H/Q99D/R33Q/R42Y/R54Q/S133A/S66F/T210M/V115G/Y107V/Y59L/Y89S). The test is classed as binding.
The target in a further test is HLA-DRB1*11:01 (Homo sapiens, UniProt P01903+P01911, A100R/A169T/A87E/I96F/K41T/L162R/M171V/P40S/Q125H/Q178H/Q39Y/Q99D/R42S/S66Y/T262R/V115G/W38E). The class given is binding.
Another test has as its target DQA1*03:01 DQB1*03:02 (Homo sapiens, UniProt P01909+P01920, A209T/A45G/C70Q/D89A/DUP78-78/E183D/E77G/F237L/G63E/H199R/I129T/K197E/L178F/L74F/L98V/Q57E/Q76R/S185I/S97I/T217I/T49S/V73L/Y58L). The test is classed as binding.
The next test addresses DQA1*01:01 DQB1*05:01 (Homo sapiens, UniProt P01909+P01920, A157S/A45G/A70V/C70R/D89V/E106S/E118A/E183D/E77G/F83G/G63E/H151Q/H199R/H252R/H253Q/I129T/I235V/I88M/INS77G/K197Q/L107V/L117V/L119Y/L178F/L71W/L74F/L85Q/L91A/L98M/M46L/N214S/P87R/Q116E/Q256R/Q57E/Q76K/R102G/R240Q/R75S/R78G/S102Y/S185I/S41F/S97I/T103A/T109R/T121G/T122I/T172A/T86R/V148I/V68A/V73E/Y34C/Y58G/Y62H). The class given is binding.

In another test the target is DQA1*01:02 DQB1*06:02 (Homo sapiens, UniProt P01909+P01920, A157G/A45G/C70R/E118A/E183D/E77G/F83G/G63E/H151Q/H199R/H252R/H253Q/I129T/I235V/I88M/INS77G/K197Q/L117V/L119F/L178F/L71W/L74F/L85Q/L91A/L98M/N214S/P87R/Q116E/Q76K/R102G/R240Q/R75S/R78G/S102Y/S185I/S41F/S97I/T121G/T122I/T172A/T86R/V229M/V68A/V73E/Y34C/Y41F/Y58L). The test is classed as binding.
The next test has as its target DRB1*03:01 (Homo sapiens, UniProt P01903+P01911, A100K/A102G/A103R/A169T/F55Y/I96L/K41T/L162R/M171V/P40S/Q125H/Q178H/Q39Y/R42S/S66N/T106N/T262R/W38E/Y61H). The class given is binding.
A further test addresses DRB1*04:05 (Homo sapiens, UniProt P01903+P01911, A100R/A169T/D86S/F76Y/I96L/K127E/L162R/M171V/N62H/P40V/Q125Y/R42H/S133A/S149N/S66Y/V115G/V209L/W38E). The class given is binding.
Another test addresses DRB1*08:02 (Homo sapiens, UniProt P01903+P01911, A100R/A103L/A169T/F76Y/H45Y/I96F/K41T/L162R/M171V/P40S/Q125H/Q178H/Q39Y/Q99D/R218S/R42G/S66Y/V115G/W38E). The class given is binding.
The target in a further test is DRB1*09:01 (Homo sapiens, UniProt P01903+P01911, A100R/A103E/D57H/D86V/F55Y/F60I/F76Y/I96F/K127E/L162R/M171V/P40D/Q125H/Q99R/R33Q/R42F/S133A/S66N/T210M/V115G/W38K/Y107V/Y59G/Y89S). The class given is binding.
A further test concerns the target DRB1*12:01 (Homo sapiens, UniProt P01903+P01911, A100R/A169T/D57E/D86V/F55L/H45Y/K41T/L162R/M171V/P40S/Q125H/Q178H/Q39Y/Q99D/R42G/S66L/T262R/V114A/V67L/W38E/Y59H/Y61H/Y89S). The test is classed as binding.
The target in the next test is DRB1*13:02 (Homo sapiens, UniProt P01903+P01911, A100E/A169T/K41T/L162R/M171V/P40S/Q125H/Q178H/Q39Y/Q99D/R42S/S66N/T262R/V115G/W38E/Y61H). The class given is binding.
Another test concerns the target DRB3*02:02 (Homo sapiens, UniProt P01903+P79483, A212P/D57E/F66Y/L67A/R103Q/R218S/R40L/S89Y/T80R/V86D/Y55F/Y59H). The test is classed as binding.
For a further test, the target named is DRB4*01:01 (Homo sapiens, UniProt P01903+P13762, G164S). The test is classed as binding.
A further test has as its target DQA1*05:01 DQB1*02:01 (Homo sapiens, UniProt P01909+P01920, A45G/A70V/D89A/E106A/E77G/E98D/H199R/L107V/N214S/P84L/P87L/T103K/T109R/T172A/T60S/V78E/V99I/Y58L/Y62S/Y69I/Y79F).

As a reminder, the IC50 is the concentration needed to halve the response being measured. As to `CC(C)[C@H](NC(=O)[C@H](CC(N)=O)NC(=O)[C@H](Cc1ccc(O)cc1)NC(=O)[C@H](C)NC(=O)[C@@H](N)CCCCN)C(=O)N[C@H](C(=O)N[C@@H](CCC(N)=O)C(=O)N[C@@H](C)C(=O)N[C@@H](Cc1ccccc1)C(=O)NCC(=O)N[C@@H](CCCNC(=N)N)C(=O)N[C@@H](CCCNC(=N)N)C(=O)NCC(=O)N1CCC[C@H]1C(=O)N[C@@H](CCC(=O)O)C(=O)O)[C@@H](C)O` [Ncl_54], the IC50 against DRB1*01:01 is 12 nM; against DRB1*04:01, 647 nM; against DRB1*07:01, 29 nM; against HLA-DRB1*11:01, 196 nM; against DQA1*03:01 DQB1*03:02 it was 33.2 µM; on DQA1*01:01 DQB1*05:01, greater than 40 µM. The IC50 at DQA1*01:02 DQB1*06:02 was 2940 nM; against DRB1*03:01, greater than 40 µM; at DRB1*04:05, 11.7 µM; against DRB1*08:02, 389 nM; at DRB1*09:01, 105 nM; against DRB1*12:01, greater than 40 µM. For the same compound, the IC50 against DRB1*13:02 is 6.73 µM; at DRB3*02:02 it was 3.66 µM; against DRB4*01:01, 2490 nM; on DQA1*05:01 DQB1*02:01, greater than 40 µM.
